Anti-infective test results gathered from many reports (values: NIAID ChemDB through PubChem).

Shared fields: tests in culture; species: Mycobacterium tuberculosis

Rows are shuffled and stem from different studies. Inhibition is in % at the dose shown (toxicity tests: loss of growth or viability). A number after MIC or MFC names an inhibition level or a share of isolates. ECn is the concentration giving n% inhibition of infection, replication or growth. MIC bound: limit read from a one-dose screen. An empty or dashed field is not shown.

SMILES	read by	read-out	changes	strain or isolate	tested at	result
O=C1c2ccc(N3CCCCC3)cc2-n2c1nc1ccncc1c2=O	resazurin	MIC		H37Rv		>4 µg/mL
CC(C)(C)OC(=O)N1CCc2c(sc(N)c2C(=O)O)C1	resazurin	MIC		H37Rv		>300 µM
CNC(=O)c1c(-c2cccc(OC)c2)oc2cc(OC)cc(CN3CCCCC3)c12	resazurin / fluorescence	MIC		mc(^2)7000		>20 µM
N#CC(Nc1ccc(Cl)cc1)c1ccc(OCc2nc3ccccc3[nH]2)cc1	resazurin	inhibition		H37Rv	6.25 µg/mL	90%
CCOC(=O)c1c(N)sc2c1CCN(C(=O)OCc1ccccc1)C2	resazurin	MIC		H37Rv		>200 µM
c1ccc(-c2csc(Nc3ccccn3)n2)cc1	visual reading	MIC		H37Rv		>20 µM
CCOC(=O)NN(C(=O)OCC)C(=C(C1CCCCC1)N1CCOCC1)N(NC(=O)OCC)C(=O)OCC	BACTEC	inhibition		H37Rv	12.5 µg/mL	13%
Cc1ccc(-c2noc(C3=CC4(CCN(CC5CCCO5)CC4)c4ccccc43)n2)cn1	turbidity	MIC	Spiroindene-resistant	H37Rv		0.5 µM
CC1COc2c(N3CCN(C)CC3)c(F)cc3c(=O)c(C(=O)O)cn1c23	broth dilution	MIC80	Bedaquiline-resistant I66M			0.7 µM
Cn1c2ccccc2c2nnc(NCCCO)nc21	resazurin	inhibition		H37Rv	6.25 µg/mL	29%
CCCCCCNC(=O)c1ccc(Oc2ccc(Cl)cc2Cl)c(O)c1	MTT	MIC		H37Rv		>100 µg/mL
CC(NNC(=O)c1cc[n+]([B]C#N)cc1)c1ccccc1F	BACTEC	inhibition			0.5 µM	0%
C1=C(c2nc(-c3cccnc3)no2)c2ccccc2C12CCN(CC1CCCO1)CC2	turbidity	MIC	Spiroindene-resistant	TB333		>25 µM
CC1COc2c(N3CCN(C)CC3)c(F)cc3c(=O)c(C(=O)O)cn1c23		MIC		Erdman		1.25 µg/mL
Clc1ccc(-c2nnc3n2NC(c2ccccc2)S3)c(Cl)c1	BACTEC	MIC bound		H37Rv		>128 µg/mL
COc1ccc([C@@H]2CC3(C[C@H](c4ccc(OC)cc4)N2)N=c2c(c4c5c6c(C)c(O)c4c(O)c2=NC(=O)/C(C)=C\C=C\[C@H](C)[C@H](O)[C@@H](C)[C@H](O)[C@H](C)[C@H](OC(C)=O)[C@H](C)[C@@H](OC)/C=C/O[C@@](C)(O6)C5=O)N3)cc1		MIC		ATCC 35822 (isoniazid-resistant)		0.02 µg/mL
Cc1cc(C(=O)NCc2ccc(Oc3ccc(Cl)cc3Cl)c(O)c2)no1	MTT	MIC		H36Rv		3 µg/mL
O=C(O)c1c(O)cc(=O)oc1-c1cccc(Cl)c1	BACTEC	MIC bound		H37Rv		>12.5 µg/mL
CC1CN(c2cncc(C(N)=S)n2)CC(C)O1		MIC		Capreomycin-resistant		62.5 µg/mL
CCN(CC)N(CC)C(=O)COc1cc2c(O)c3c(O)c(C)c4c(c13)C(=O)[C@@](C)(O/C=C/[C@H](OC)[C@@H](C)[C@@H](OC(C)=O)[C@H](C)[C@H](O)[C@H](C)[C@@H](O)[C@@H](C)/C=C/C=C(/C)C(=O)N2)O4		EC50				0.15 µg/mL
Cc1cc(N(CCC#N)CCC#N)ccc1C=Nc1ccc(C(=O)NN2C(=O)/C(=C/c3ccc(N(CCC#N)CCC#N)cc3)N=C2c2cc([N+](=O)[O-])ccc2Cl)cc1.O=NO	BACTEC	MIC bound		H37Rv		>12.5 µg/mL
CCCCc1cc(-c2ccc(Oc3ccc(Cl)cc3Cl)c(O)c2)no1	MTT	MIC		H37Rv		>100 µg/mL
CCCCN(C(=O)COc1cc2c(O)c3c(O)c(C)c4c(c13)C(=O)[C@@](C)(O/C=C/[C@H](OC)[C@@H](C)[C@@H](OC(C)=O)[C@H](C)[C@H](O)[C@H](C)[C@@H](O)[C@@H](C)/C=C/C=C(/C)C(=O)N2)O4)N(C)C		EC50				0.15 µg/mL
COC(=O)/C1=C/c2c([nH]c3ccc(I)cc23)/C(C(=O)OC)=C\c2c1[nH]c1ccc(I)cc21	resazurin / absorbance	EC50		H37Rv		3.89 µM
CCOC(=O)c1c(-c2ccc(O)cc2)oc2cc(O)cc(CN3CCCCC3)c12	resazurin / fluorescence	MIC		mc(^2)7000		1 µM
Cc1c(N=Nc2ccc(Br)cc2)c(-c2ccccc2)nn1C(=S)S		MIC		TAC-R		12.5 µg/mL
CC(C)=CCOc1c2ccoc2cc2oc(=O)ccc12	resazurin	MIC100	Ethambutol-resistant	H37Rv clinical isolate CRY4		100 µg/mL
CN1OC(=O)OC2(CCCCC2)C1=O	resazurin	inhibition		H37Rv	6.25 µg/mL	-3%
N#CC(Nc1ccc(F)cc1)c1ccc(OCc2nc3ccccc3[nH]2)cc1	resazurin	inhibition		H37Rv	6.25 µg/mL	96%
NC(=S)c1cncc(-n2ccnc2)n1		MIC		Isoniazid-resistant		250 µg/mL
Cc1noc(C2=CC3(CCN(CC4CCCO4)CC3)c3ccccc32)n1	resazurin	MIC		H37Rv		>200 µM
CC(C)(C)c1ccc(C(=O)Nc2nc(-c3ccccn3)cs2)cc1	visual reading	MIC99		H37Rv		0.25 µM
O=C(N=Nc1c(Cl)c(O)c2ccccc2c1O)C(=O)Nc1cccc(C(F)(F)F)c1	BACTEC	MIC bound		H37Rv		>12.5 µg/mL
CCOC(=O)c1c(NC(=O)c2c(F)c(F)c(F)c(F)c2F)sc2c1CCN(CC)C2	low oxygen	MIC		H37Rv		>200 µM
C[N+](C)(C)CC(=O)N/N=C/c1ccc(O)cc1O.[Cl-]	BACTEC	inhibition		H37Rv	12.5 µg/mL	-14%
CCCCN1[C@@H](c2ccccc2)CC2(C[C@H]1c1ccccc1)N=c1c(c3c4c5c(C)c(O)c3c(O)c1=NC(=O)/C(C)=C\C=C\[C@H](C)[C@H](O)[C@@H](C)[C@H](O)[C@H](C)[C@H](OC(C)=O)[C@H](C)[C@@H](OC)/C=C/O[C@@](C)(O5)C4=O)N2		MIC		ATCC 35838 (rifampicin- rifabutin-resistant)		1 µg/mL
Cc1ccc2[nH]c3cc(C#N)c(=O)oc3c2c1	resazurin	MIC99		H37Rv		0.3 µg/mL
Nc1sc2c(c1C(=O)O)CCCC2	resazurin	MIC		H37Rv		507 µM
C=C(CC[C@@H](C)[C@H]1CC[C@H]2[C@@H]3C(C=O)=C4C[C@@H](O)CC[C@]4(C)[C@H]3CC[C@]12C)C(C)C		MIC		H37Rv		7.8 µg/mL
CO[C@H]1/C=C/O[C@@]2(C)Oc3c(C)c(O)c4c(O)c(c5c(c4c3C2=O)NC2(CCNCC2)N=5)=NC(=O)/C(C)=C\C=C\[C@H](C)[C@H](O)[C@@H](C)[C@@H](O)[C@@H](C)[C@H](OC(C)=O)[C@@H]1C		MIC		ATCC 35837 (ethambutol-resistant)		2 µg/mL
NNC(=O)c1ccncc1	broth dilution	MIC80	Isoniazid-resistant	35822		>15 µM
N#Cc1cc2[nH]c3ccc(OC(F)(F)F)cc3c2oc1=O	resazurin	MIC99		H37Rv		3.6 µg/mL
Cc1cc(NS(=O)(=O)c2ccc(N=Nc3c(Nc4ccccc4)nn(-c4ccc(S(=O)(=O)Nc5ccncn5)cc4)c3C)cc2)no1	resazurin	inhibition		H37Rv	6.25 µg/mL	8%
CC1COc2c(N3CCN(C)CC3)c(F)cc3c(=O)c(C(=O)O)cn1c23	resazurin	MIC	Rifampicin-resistant	19000		0.14 µM
CCOC(=O)c1c(N)sc2c1CCN(C(=O)OC(C)(C)C)C2	resazurin	MIC		H37Rv		>300 µM
Cc1c2cc[n+](COC(=O)c3ccccc3)cc2c(C)c2c1[nH]c1ccccc12	resazurin	inhibition		H37Rv	6.25 µg/mL	100%
OCNC(=S)c1cncc(-n2ccnc2)n1		MIC		Capreomycin-resistant		500 µg/mL
C1=C(c2nc(-c3ccccc3)no2)c2ccccc2OC12CCN(CC1CCCO1)CC2	turbidity	MIC		TB333		12.5 µM
CO[C@H]1/C=C/O[C@@]2(C)Oc3c(C)c(O)c4c(O)c(cc(OCC(=O)NN5C(=O)CNC5=O)c4c3C2=O)NC(=O)/C(C)=C\C=C\[C@H](C)[C@H](O)[C@@H](C)[C@@H](O)[C@@H](C)[C@H](OC(C)=O)[C@@H]1C		EC50				1.2 µg/mL
Oc1cc(CNC2CCCCC2)ccc1Oc1ccc(Cl)cc1Cl	MTT	MIC		H36Rv		6.25 µg/mL
CCOC(=O)c1c(-c2ccccc2)oc2ccc(O)c(CCN3CCCC(O)C3)c12	resazurin / fluorescence	MIC		mc(^2)7000		>20 µM
CC1COc2c(N3CCN(C)CC3)c(F)cc3c(=O)c(C(=O)O)cn1c23		MIC90		100 isolates		4 µg/mL
Cn1ccn(C2CCCCC2)c1=O	BACTEC	inhibition		H37Rv	12.5 µg/mL	0%
Oc1cc(Cl)ccc1Oc1ccc(Cn2cc(-c3ccccc3)nn2)cc1Cl	MTT	MIC		H37Rv		>100 µg/mL
Cc1nc(N)sc1N=Nc1cccc(Cl)c1Cl	BACTEC	MIC bound		H37Rv		>12.5 µg/mL
N#CC(Nc1cccc(F)c1)c1ccc(OCc2nc3ccccc3[nH]2)cc1	resazurin	inhibition		H37Rv	6.25 µg/mL	90%
CCOC(=O)c1c(-c2ccccc2)oc2cc(O)cc(CNC(C)C)c12	resazurin / fluorescence	MIC		mc(^2)7000		9 µM
CCOC(=O)c1cc(-c2ccccc2)sc1N	resazurin	MIC		H37Rv		>400 µM
CCCCN(CCCC)C(=O)c1ccc(Oc2ccc(Cl)cc2Cl)c(O)c1	MTT	MIC		H37Rv		>100 µg/mL
CCSC(=N)N=Nc1ccc(O)cc1	BACTEC	MIC bound		H37Rv		>12.5 µg/mL
NC(=S)c1cncc(-n2cncn2)n1		MIC		Ethionamide-resistant		500 µg/mL
c1ccc(Nc2nc(-c3cnccn3)cs2)nc1	visual reading	MIC		H37Rv		14 µM
COc1cc([C@@H]2c3cc4c(cc3[C@@H](Nc3ccc(F)cc3)[C@H]3COC(=O)[C@H]23)OCO4)cc(OC)c1O	BACTEC	inhibition		H37Rv	12.8 µg/mL	-2%
NNC(=O)c1ccncc1	resazurin	MIC		H37Rv		0.02 µg/mL
CCC[CH2][Sn]([CH2]CCC)([O]C(=O)c1ccc(OC)c(OC)c1OC)[O][Sn]([CH2]CCC)([CH2]CCC)[O]C(=O)c1ccc(OC)c(OC)c1OC	resazurin	inhibition		H37Rv	6.25 µg/mL	5%
CO[C@H]1/C=C/O[C@@]2(C)Oc3c(C)c(O)c4c(O)c(c(/C=N/N5CCN(C)CC5)c(O)c4c3C2=O)NC(=O)/C(C)=C\C=C\[C@H](C)[C@H](O)[C@@H](C)[C@@H](O)[C@@H](C)[C@H](OC(C)=O)[C@@H]1C	broth dilution	MIC80	Ofloxacin-resistant	12119		0.04 µM
CC1COc2c(N3CCN(C(N)=NC#N)CC3)c(F)cc3c(=O)c(C(=O)O)cn1c23	broth dilution	MIC		ATCC 35830		0.312 µg/mL
CO[C@H]1/C=C/O[C@@]2(C)Oc3c(C)c(O)c4c(O)c(cc(OCC(=O)NNC(N)=S)c4c3C2=O)NC(=O)/C(C)=C\C=C\[C@H](C)[C@H](O)[C@@H](C)[C@@H](O)[C@@H](C)[C@H](OC(C)=O)[C@@H]1C		EC50				0.18 µg/mL
Cc1ccc2c(c1)[nH]c(=S)n2C=C1C(=O)NC(=O)NC1=O	BACTEC	MIC bound		H37Rv		>6.25 µg/mL
COc1ccc(-c2noc(C3=CC4(CCN(CC5CCCO5)CC4)c4ccccc43)n2)cc1	resazurin	MIC	Ethambutol-resistant	17003		0.39 µM
CC1(C)CC(Nc2ncnc3c2ncn3[C@@H]2O[C@H](CO)[C@@H](O)[C@H]2O)CC(C)(C)N1O	BACTEC	inhibition		H37Rv	12.5 µg/mL	9%
CCCCc1cn(Cc2ccc(Oc3ccc(Cl)cc3Cl)c(O)c2)nn1	MTT	MIC	INH RIF resistant	V2475		>4.8 µg/mL
Sc1ccccc1-c1csc(Nc2ccccn2)n1	visual reading	MIC		H37Rv		>20 µM
N#CC(Nc1ccc(F)cc1F)c1ccc(OCc2nc3ccccc3[nH]2)cc1	resazurin	inhibition		H37Rv	6.25 µg/mL	100%
Cc1cc(CC(=O)NCc2ccc(Oc3ccc(Cl)cc3O)c(Cl)c2)on1	MTT	MIC	InhA overexpression	mc4914		100 µg/mL
Cc1ccc(N2CCOS(=O)OCC2)cc1	BACTEC	inhibition		H37Rv	12.5 µg/mL	4%
CCCCN(C(=O)COc1cc2c(O)c3c(O)c(C)c4c(c13)C(=O)[C@@](C)(O/C=C/[C@H](OC)[C@@H](C)[C@@H](OC(C)=O)[C@H](C)[C@H](O)[C@H](C)[C@@H](O)[C@@H](C)/C=C/C=C(/C)C(=O)N2)O4)N1CCOCC1		EC50				1.5 µg/mL

For reference, 8 entries again:

SMILES	read by	read-out	changes	strain or isolate	tested at	result
CC1COc2c(N3CCN(C)CC3)c(F)cc3c(=O)c(C(=O)O)cn1c23	broth dilution	MIC80	Bedaquiline-resistant I66M			0.7 µM
CO[C@H]1/C=C/O[C@@]2(C)Oc3c(C)c(O)c4c(O)c(cc(OCC(=O)NN5C(=O)CNC5=O)c4c3C2=O)NC(=O)/C(C)=C\C=C\[C@H](C)[C@H](O)[C@@H](C)[C@@H](O)[C@@H](C)[C@H](OC(C)=O)[C@@H]1C		EC50				1.2 µg/mL
NC(=S)c1cncc(-n2ccnc2)n1		MIC		Isoniazid-resistant		250 µg/mL
CCOC(=O)c1c(NC(=O)c2c(F)c(F)c(F)c(F)c2F)sc2c1CCN(CC)C2	low oxygen	MIC		H37Rv		>200 µM
CCOC(=O)c1c(N)sc2c1CCN(C(=O)OC(C)(C)C)C2	resazurin	MIC		H37Rv		>300 µM
Cn1c2ccccc2c2nnc(NCCCO)nc21	resazurin	inhibition		H37Rv	6.25 µg/mL	29%
CCCCN(CCCC)C(=O)c1ccc(Oc2ccc(Cl)cc2Cl)c(O)c1	MTT	MIC		H37Rv		>100 µg/mL
COC(=O)/C1=C/c2c([nH]c3ccc(I)cc23)/C(C(=O)OC)=C\c2c1[nH]c1ccc(I)cc21	resazurin / absorbance	EC50		H37Rv		3.89 µM